# Test: Conjugation efficiency of nanofibers onto PLGA nanoparticles
# Assay type: physicochemical
# Conditions: 2 mg PLGA nanoparticles
substance,measurement,setting,value
"K9A5(QW)6 (KKKKKKKKKAAAAAQWQWQWQWQWQW) [K9A5(QW)6 (SEQ ID NO: 5), peptide nanofiber group compared for conjugation efficiency]",Conjugation efficiency,0.25 mg total mass of nanofiber used,25.5%
same,Conjugation efficiency,0.50 mg total mass of nanofiber used,24.7%

# Source: patent publication US20260102503A1, “NANOCOMPOSITES FOR ENHANCED CELLULAR PAYLOAD DELIVERY” (priority 2022, published 2026)
